Results published in PubChem BioAssay AID504850 (National Center for Advancing Translational Sciences (NCATS), 2011).
Only a part is listed here, and it is no random draw. Inconclusive results are not listed. Calls of active or inactive are those of the source. Calls follow the shape of the dose curve; as a rule, active = well fitted inhibition curve with a large enough effect; inconclusive = small, poorly fitted or top-dose-only effect, or effect the other way; inactive = no such curve, though single readings can be large or run the other way.

Assay: Confirmation screen for delayed death inhibitors of the malarial parasite plastid, 48 hour incubation; also: nearly all actives have a fitted effect of over 65% in size
Details: P. falciparum-infected erythrocytes, luciferase growth
Potency is read from the fitted curve at half-maximal effect.

Row | Compound | Potency
1 | CP(=O)(Nc1ccc(SC(F)(F)F)cc1)Oc1ccccc1 (stereo unspecified) | active: 10 µM
